This note sets out measurements from BindingDB's records for 16597152.

By UniProt entry, the sequences of proteins in these tests, tags left out. Residues count along the entry.
UniProt Q45894, 1-425: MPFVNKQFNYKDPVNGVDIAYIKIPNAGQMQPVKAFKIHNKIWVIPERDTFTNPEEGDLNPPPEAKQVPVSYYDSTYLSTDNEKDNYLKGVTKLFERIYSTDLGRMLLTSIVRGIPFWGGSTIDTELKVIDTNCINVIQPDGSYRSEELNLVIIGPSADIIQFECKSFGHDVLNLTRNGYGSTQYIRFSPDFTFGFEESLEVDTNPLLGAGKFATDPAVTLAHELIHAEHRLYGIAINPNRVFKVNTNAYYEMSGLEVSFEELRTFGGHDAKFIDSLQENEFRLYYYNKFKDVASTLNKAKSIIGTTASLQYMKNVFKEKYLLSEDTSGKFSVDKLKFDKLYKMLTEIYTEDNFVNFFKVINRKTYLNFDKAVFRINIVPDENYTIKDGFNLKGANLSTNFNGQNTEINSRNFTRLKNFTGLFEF

Where only a bound is given, the exact number is not on record here.

The target of the test is Botulinum neurotoxin type A2 [1-425] (Clostridium botulinum, UniProt Q45894). To be noted: pH 7.4.
As to `O=C(/C=C/c1ccc(Cl)c(Cl)c1)NO`, the IC50 is 75 µM.
Consider `O=C(CCc1ccc(Cl)cc1Cl)NO`, for which the IC50 was found to be 3.1 µM.
`Cc1ccc(/C=C/C(=O)NO)cc1` showed a half-maximal inhibitory concentration (IC50) of 87 µM.
With `O=C(/C=C/c1ccc(Br)cc1)NO`, half-maximal inhibition (IC50) required 40 µM.
`COc1ccc(/C=C/C(=O)NO)cc1`: half-maximal inhibition (IC50) required 79 µM.
`CC(C)(C)c1ccc(/C=C/C(=O)NO)cc1` gave an IC50 above 100 µM.
For `O=C(/C=C(\F)c1ccccc1)NO`, the IC50 was above 100 µM.
`O=C(/C=C/c1ccc(F)cc1)NO` showed a 50% inhibitory concentration (IC50) of 54 µM.
The compound `O=C(C#Cc1ccc(Cl)cc1Cl)NO` displayed an IC50 of 73 µM.
In the case of `N#Cc1ccc(/C=C/C(=O)NO)cc1` it was 61 µM; in that of `O=C(/C=C/c1ccc([N+](=O)[O-])cc1)NO`, 72 µM.
